Laboratory results as given in patent US20240254174A1.

How the values were obtained:
[1] = molecular target: at least four other nAChR subtypes; experiment: cell-based or functional assay
[2] = molecular target: α7 nAChR (nicotinic acetylcholine receptor), expressed in Xenopus laevis oocytes (Human) (UniProt P36544); experiment: cell-based or functional assay

RVG peptide (rabies viral glycoprotein peptide)
inhibition of ACh-mediated currents at 100 µM peptide (rapid screening) [1]: > 25 % inhibition
inhibition of ACh-mediated currents at 100 µM peptide (rapid screening) [2]: 80 % inhibition
